Data taken from article PMC12153294 (mBio, 2025).

Test system: JHMV A1438T/G1439V recombinant virus
Format: cell-based, murine hepatitis virus (MHV)

SMILES	Fold change in PFU/mL, WT vs A1438T/G1439V
COC(=O)[C@H](Cc1c[nH]c2ccccc12)Nc1ncnc2[nH]ccc12 [Compound 5a]	2.0 x
CC(C)OC(=O)[C@H](Cc1c[nH]c2ccccc12)Nc1ncnc2[nH]ccc12 [Compound 5c]	2.8 x
